Earlier results in publication PMC9862026, “In Vivo Toxicity, Redox-Modulating Capacity and Intestinal Permeability of Novel Aroylhydrazone Derivatives as Anti-Tuberculosis Agents” (Pharmaceutics, 2022).
Like-named read-outs stand apart in the source and are kept apart here.

System: HEK-293T
Conditions: HEK-293T vs M. tuberculosis MIC, cited from earlier work

Compound | SI (selective index) (ref [23]) | SI (selective index) (ref [22])
COc1cc(C=NNC(=O)c2snnc2C)ccc1O [3a, N′-[(4-hydroxy-3-methoxyphenyl)methylidene]-4-methyl-1,2,3-thiadiazole-5-carbohydrazide] | 3516 | –
COc1ccc2[nH]cc(C=NNC(=O)c3ccco3)c2c1 [3b, N′-[(5-methoxy-1H-indol-3-yl)methylidene]furan-2-carbohydrazide] | – | 633.49
